Results deposited as PubChem BioAssay AID504761 (Drosophila RNAi Screening Center, 2011)

- Aim: 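Genome-wide fly cell screen for genes dengue virus requires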 (primary screen)
- System: D.Mel-2 cells from Drosophila
- Knock-down reagent: long dsRNA against Drosophila genes
- Challenge: infection with dengue virus type 2; dose and infection time not stated
- Measured: 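Cells stained for dengue envelope protein and imaged; percent of infected cells per well on duplicate plates, ranked by infection, with stained nuclei counted for cell number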
- Reading the numbers: infection score: higher = more virus-infected cells
- Call rule: 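Very low infection ranking in both replicate wells (chance probability at most 0.065), then a retest showing infection dropped 1.5-fold or more at p below 0.05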
- Meaning of the calls: active = confirmed: knock-down lowers infection; inactive = not picked or not confirmed
The deposit covers about 22,000 reagents; below is an unselected part of those that have a named target and a result. Of all reagents, 116 (0.52%) are marked active. 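Calls depend on retest data that are not deposited; infection was ranked per plate without normalising between plates; the unit of the infection score is not given.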 Entries without a mark were called inactive. Further read-outs or replicates are left out here. Not stated in the record: the amount of reagent, the time to read-out.

| target gene | dsRNA | infection score, replicate 1 | infection score, replicate 2 |
| --- | --- | --- | --- |
| CG12608 | DRSC19472 | 3.14 | 2.33 |
| CG13727 | DRSC10055 | 6.15 | 2.13 |
| CG30460 | DRSC06559 | 6.33 | 13.4 |
| CG30460 | DRSC23115 | 1.31 | 10.1 |
| CG8861 | DRSC12731 | 1.18 | 0.76 |
| CG8861 | DRSC16449 | 6.25 | 7.89 |
| CG15657 | DRSC04248 | 13.6 | 17.2 |
| SkpB (SKP1-related B) | DRSC07683 | 7.56 | 4.15 |
| SkpB (SKP1-related B) | DRSC25160 | 0.78 | 3 |
| Inx5 (Innexin 5) | DRSC20051 | 2.97 | 0.46 |
| CG33229 | DRSC07863 | 0.47 | 1.06 |
| CG33229 | DRSC24581 | 5.58 | 11.8 |
| CG9391 | DRSC11858 | 4.15 | 2.05 |
| ACXB (Adenylyl cyclase X B) | DRSC00845 | 37.5 | 11.4 |
| ACXB (Adenylyl cyclase X B) | DRSC26343 | 12.3 | 6.77 |
| Or43a (Odorant receptor 43a) | DRSC07485 | 4.55 | 7.15 |

Reprinted from the entries so far for reference:
| target gene | dsRNA | infection score, replicate 1 | infection score, replicate 2 |
| --- | --- | --- | --- |
| ACXB (Adenylyl cyclase X B) | DRSC26343 | 12.3 | 6.77 |
| Or43a (Odorant receptor 43a) | DRSC07485 | 4.55 | 7.15 |

More results follow:
| target gene | dsRNA | infection score, replicate 1 | infection score, replicate 2 |
| --- | --- | --- | --- |
| ana (anachronism) | DRSC07579 | 9.35 | 2.18 |
| ana (anachronism) | DRSC24236 | 2.25 | 4.03 |
| CG16852 | DRSC01876 | 4.29 | 5.03 |
| CG1504 | DRSC20513 | 4.15 | 4.42 |
| CG1504 | DRSC26901 | 5.86 | 1.73 |
| PPP4R2r (Protein phosphatase 4 regulatory subunit 2-related protein) | DRSC18695 | 12.5 | 18.1 |
| PPP4R2r (Protein phosphatase 4 regulatory subunit 2-related protein) | DRSC21503 | 1.31 | 3.21 |
| PPP4R2r (Protein phosphatase 4 regulatory subunit 2-related protein) | DRSC27825 | 5.83 | 32.1 |
